Anti-infective test results gathered from many reports (values: NIAID ChemDB through PubChem).

All rows: growth or infection tests; species: HIV-1

Conditions beyond the fields shown may differ between rows.

smiles | measure | strain | cells | mutations | read by | value
Cc1ncc(-c2ccc(NCCOc3ccc(F)cc3)cn2)c(N2CCC(C)(C)CC2)c1[C@H](OC(C)(C)C)C(=O)O | EC50 | NL4-3 | MT-2 |  | luminescence | 0.0016 µM
CC(C)CN(C[C@@H](O)[C@H](Cc1ccccc1)NC(=O)[C@@H](NC(=O)CNC(C)(C)c1ccccc1)C(C)(C)C)S(=O)(=O)c1ccc(N)cc1 | EC50 | RF | MT-2 |  |  | <1 µM
CCOC(=O)c1cn(CC(O)CNc2ccccc2C(=O)OC)cc1-c1ccccc1 | EC50 | IIIB | MT-4 |  | cytopathic effect / MTT | >37 µM
CC(C)CN(C[C@@H](O)[C@H](Cc1ccccc1)NC(=O)[C@@H](NC(=O)[C@@H](C)NC(C)(C)c1ccccc1)C(C)(C)C)S(=O)(=O)c1ccc(N)cc1 | EC50 | RF | MT-2 |  |  | <1 µM
Nc1nc(OC[C@H]2CC[C@@H](CO)O2)c2[nH]cnc2n1 | EC50 | IIIB | CEM |  | syncytia | >250 µM
CCOC(=O)c1cccn1CC(O)CNc1ccccc1 | EC50 | IIIB | MT-4 |  | cytopathic effect / MTT | >200 µM
CC(=O)OC[C@H]1O[C@@H](SCCOP(=O)(O)OC[C@H]2O[C@@H](n3cc(C)c(=O)[nH]c3=O)C[C@@H]2N=[N+]=[N-])[C@H](OC(C)=O)[C@@H](OC(C)=O)[C@@H]1OC(C)=O | EC50 | IIIB | MT-4 |  | cytopathic effect / MTT | 0.05 µM
Nc1nc(Cl)cc(OC[C@@H]2O[C@H](COCc3ccccc3)[C@@H](OCc3ccccc3)[C@H]2OCc2ccccc2)n1 | EC50 | IIIB | CEM |  | syncytia | >10 µM
CC1([C@@H]2CC[C@]3(NC(=O)N4CCC[C@H]4c4ncc(-c5ccc(F)cc5)[nH]4)CC[C@]4(C)[C@H](CC[C@@H]5[C@@]6(C)CC=C(c7ccc(C(=O)O)cc7)C(C)(C)[C@@H]6CC[C@]54C)[C@@H]23)CC1 | EC50 | 92HT599 | MT-2 |  | p24 / ELISA | ≤0.01 µM
CCC(C)[C@H](NC(=O)CNC(C)(C)c1cccc(F)c1)C(=O)N[C@@H](Cc1ccccc1)[C@H](O)CN(CC(C)C)S(=O)(=O)c1ccc2ncsc2c1 | EC50 | RF | MT-2 |  |  | <1 µM
Cc1cc(C)cc(Cc2c(I)c(=O)[nH]c(=O)n2COCc2ccccc2)c1 | EC50 | A17 | TZM-bl | Y181C | p24 / ELISA | 0.022 µM
COc1cc(OC[C@H]2CC[C@@H](COCc3ccccc3)O2)ncn1 | EC50 | IIIB | CEM |  | syncytia | >10 µM
Cc1cc(S(=O)(=O)Nc2nnc3c4ccccc4cnn23)c(S)cc1Cl | EC50 | OC/100 | CEM |  | p24 | 27.4 µM
COc1cccc2c1nc(-c1ccccc1F)n2Cc1cc(F)ccc1F | EC50 | IIIB | MT-4 |  |  | 0.003 µg/mL
Cc1ncc(-c2ccc(OCCn3cc(Cl)cn3)cn2)c(N2CCC(C)(C)CC2)c1[C@H](OC(C)(C)C)C(=O)O | EC50 | NL4-3 | MT-2 |  | luminescence | 0.0071 µM
C[C@@]1(F)[C@H](O)[C@@H](CO)O[C@H]1n1cc(I)c2c(N)nc(N)nc21 | EC90 |  | PBMC |  |  | >100 µM
C=C1CN(S(=O)(=O)c2ccc(C)cc2)CCCN(Cc2ccncc2)CCCN(S(=O)(=O)c2ccc(C)cc2)C1 | EC50 | NL4-3 | MT-4 |  | p24 | 6.13 µM
CCC(=O)c1cn(S(=O)(=O)c2cccc([N+](=O)[O-])c2)c2ccc(C#N)cc12 | EC50 | IIIB | C8166 |  | syncytia / visual reading | >200 µg/mL
Nc1nc(N)nc(OC[C@H]2CC[C@@H](COCc3ccccc3)O2)n1 | EC50 | IIIB | CEM |  | syncytia | >250 µM
Cc1cn([C@H]2C[C@H](N=[N+]=[N-])[C@@H](COP(=O)(O)OCCS[C@@H]3O[C@H](CO)[C@@H](O)[C@H](O)[C@H]3O)O2)c(=O)[nH]c1=O | EC50 | LAI | CEM + CEM-SS |  | RT activity | 0.004 µM
O=P(O)(O)OP(=O)(O)OP(=O)(O)O | EC50 | IIIB | H9 |  | p24 | >100 µg/mL
COc1cccc(C(C)(C)NCC(=O)N[C@H](C(=O)N[C@@H](Cc2ccccc2)[C@H](O)CN(CC(C)C)S(=O)(=O)c2ccc(N)cc2)C(C)(C)C)c1 | EC50 | RF | MT-2 |  |  | <1 µM
CS(=O)(=O)O.Cc1c(O)cccc1C(=O)N[C@@H](CSc1ccccc1)[C@H](O)CN1C[C@H]2CCS[C@H]2C[C@H]1C(=O)NC(C)(C)C | EC50 | HXB2 | CEM + CEM-SS |  | cytopathic effect / XTT | 0.0051 µM
CCOC(=O)c1cn(CC(O)CNc2ccc(C)cc2)cc1-c1ccccc1 | EC50 | IIIB | MT-4 |  | cytopathic effect / MTT | >200 µM
O=S(=O)(Nc1nnc2c3ccccc3cnn12)c1ccc(Cl)cc1S | EC50 | RF | CEM |  | cytopathic effect / XTT | 49 µM
O=C(O)c1cc(Cc2ccc(O)c(C(=O)O)c2)ccc1O | EC50 | IIIB | CEM |  | cytopathic effect / XTT | >350 µM
COc1cccc2c1nc(-c1ccccc1F)n2Cc1ccc(C)cc1 | EC50 | IIIB | MT-4 |  |  | >11.7 µg/mL
Cc1ncc(-c2cnc(OCC3CCN(C)CC3)c(F)c2)c(N2CCC(C)(C)CC2)c1[C@H](OC(C)(C)C)C(=O)O | EC50 | NL4-3 | MT-2 |  | luminescence | 0.0116 µM
CCSCCCCCCCCCCCC(=O)OC[C@H]1O[C@@H](n2cc(C)c(=O)[nH]c2=S)C[C@@H]1F | EC50 |  | MT-2 |  | syncytia | ~0.05 µM
Nc1ccnc(OC[C@H]2CC[C@@H](COCc3ccccc3)O2)n1 | EC50 | IIIB | CEM |  | syncytia | >250 µM
CNC(=O)c1c(O)c2ncc(Cc3ccc(F)cc3)c3c2n(c1=O)C[C@](C)(c1nnc(C)o1)O3 | EC50 | IIIB | MT-2 |  |  | 0.0034 µM
CC(C)(C)NC(=O)c1ccccc1NCC(O)Cn1cc(C(=O)NC(C)(C)C)c(-c2ccccc2)c1 | EC50 | IIIB | MT-4 |  | cytopathic effect / MTT | >101 µM
CCOC(=O)[C@H](C)NP(=O)(OC[C@H]1O[C@@H](n2cc(I)c3c(N)nc(N)nc32)[C@](C)(F)[C@@H]1O)Oc1ccccc1 | EC90 |  | PBMC |  |  | >100 µM
CC(C)CN(C[C@@H](O)[C@H](Cc1ccccc1)NC(=O)[C@@H](NC(=O)CNC(C)(C)c1cccc(F)c1)C(C)C)S(=O)(=O)c1ccc(N)cc1 | EC50 | RF | MT-2 |  |  | <1 µM
CC1([C@@H]2CC[C@]3(NC(=O)N4CC(O)C4)CC[C@]4(C)[C@H](CC[C@@H]5[C@@]6(C)CC=C(c7ccc(C(=O)O)cc7)C(C)(C)[C@@H]6CC[C@]54C)[C@@H]23)CC1 | EC50 | 92HT599 | MT-2 |  | p24 / ELISA | ≤0.01 µM
Cc1cn([C@H]2C[C@H](F)[C@@H](COC(=O)CCCCCCCCCCCBr)O2)c(=S)[nH]c1=O | EC50 |  | MT-2 |  | syncytia | ~0.05 µM
Nc1ccn([C@H]2S[C@@H](CO)C=C2F)c(=O)n1 | EC50 | LAI | PBMC |  | PCR | <24.6 µM
C/C=C(\C)COc1ccc(-c2cnc(C)c([C@H](OC(C)(C)C)C(=O)O)c2N2CCC(C)(C)CC2)nc1 | EC50 | NL4-3 | MT-2 |  | luminescence | 0.0061 µM
C#Cc1cn([C@H]2O[C@H](CO)[C@@H](O)[C@@]2(C)F)c2nc(N)nc(N)c12 | EC90 |  | PBMC |  |  | 59.1 µM
Cn1ccnc1S(=O)(=O)Nc1cccc(C(c2c(O)cc(C(CC3CC3)CC3CC3)oc2=O)C2CC2)c1 | EC50 | IIIB | H9 |  | p24 | 1–3 µM
Nc1ccn([C@H]2C=C[C@@H](CO)O2)c(=O)n1 | EC50 | IIIB | ATH8 |  | cytopathic effect | <0.5 µM
COc1cccc2c1nc(-c1ccccc1F)n2CC1CCC1 | EC50 | IIIB | MT-4 |  |  | 0.0038 µg/mL
CCOC(=O)c1cn(CC(O)CNc2ccccc2Cl)cc1-c1ccccc1 | EC50 | IIIB | MT-4 |  | cytopathic effect / MTT | >47.3 µM
CCC(=O)c1cn(S(=O)(=O)c2cccc([N+](=O)[O-])c2)c2ccccc12 | EC50 | IIIB | C8166 |  | syncytia / visual reading | 76.8 µg/mL
O=C(OC(c1ccccc1)C(F)(F)c1nc2ccccc2o1)c1ccncc1 | EC50 | LAI | CEM + CEM-SS |  | RT activity | >100 µM
CNc1ncnc2c1c(F)cn2[C@@H]1O[C@H](CO)[C@@H](O)[C@@]1(C)F | EC90 |  | PBMC |  |  | >100 µM
Cc1cc(OCCOc2ncc(-c3cnc(C)c([C@H](OC(C)(C)C)C(=O)O)c3N3CCC(C)(C)CC3)cc2F)ccc1F | EC50 | NL4-3 | MT-2 |  | luminescence | 0.003 µM
CC(C)CN(C[C@@H](O)[C@H](Cc1ccccc1)NC(=O)[C@@H](NC(=O)CNC(C)(C)c1ccccc1)C(C)(C)C)S(=O)(=O)c1ccc2ncccc2c1 | EC50 | RF | MT-2 |  |  | <1 µM
Cc1cn([C@H]2C[C@H](N=[N+]=[N-])[C@@H](COP(=O)(OCCSC(=O)C(C)(C)C)OCCSC(=O)C(C)(C)C)O2)c(=O)[nH]c1=O | EC50 | LAI | MM + M/M |  | RT activity | 0.0001 µM
COc1ccccc1Cn1c(-c2ccccc2F)nc2c(OC)cccc21 | EC50 | IIIB | MT-4 |  |  | 0.0041 µg/mL
C[C@@]1(F)[C@H](O)[C@@H](CO)O[C@@H]1n1cc(I)c2c(N)ncnc21 | EC90 |  | PBMC |  |  | >100 µM
C=C(C)[C@@H]1CC[C@]2(NC(=O)N[C@@H]3C[C@H](C(=O)N4CCCCC4)C3(C)C)CC[C@]3(C)[C@H](CC[C@@H]4[C@@]5(C)CC=C(c6ccc(C(=O)O)cc6)C(C)(C)[C@@H]5CC[C@]43C)[C@@H]12 | EC50 | 92HT599 | MT-2 |  | p24 / ELISA | 0.01001–0.05 µM
CCOC(=O)c1cn(CC(O)CNc2ccccc2C)cc1-c1ccccc1 | EC50 | IIIB | MT-4 |  | cytopathic effect / MTT | >33 µM
CCC(=O)c1cn(S(=O)(=O)c2ccc(Cl)cc2)c2ccc(C#N)cc12 | EC50 | IIIB | C8166 |  | syncytia / visual reading | >200 µg/mL
FC(c1cccnc1)C(F)(F)c1nc(-c2ccccc2)no1 | EC50 | LAI | CEM + CEM-SS |  | RT activity | >100 µM
C=C1CN(S(=O)(=O)c2ccccc2)CCCN(Cc2ccccc2)CCCN(S(=O)(=O)c2ccccc2)C1 | EC50 | NL4-3 | MT-4 |  | p24 | >15 µM
O=C(c1ccc(-c2ccccc2)cc1)C(F)(F)c1nc2ccccc2o1 | EC50 | LAI | CEM + CEM-SS |  | RT activity | >100 µM
C=C1CN(S(=O)(=O)c2ccc(C)cc2)CCCN(C(=O)OCCC)CCCN(S(=O)(=O)c2ccc(C)cc2)C1 | EC50 | NL4-3 | MT-4 |  | p24 | 2.6 µM
Cc1ccc(C(=O)Nc2cccc(C(=O)N/N=C/c3ccc(Br)cc3)c2)cc1 | EC50 | IIIB | MT-2 |  | cytopathic effect / XTT / ELISA | >100 µg/mL
C=C(C)[C@@H]1CC[C@]2(NC(=O)N3CCC(OCCN4CCOCC4)CC3)CC[C@]3(C)[C@H](CC[C@@H]4[C@@]5(C)CC=C(c6ccc(C(=O)O)cc6)C(C)(C)[C@@H]5CC[C@]43C)[C@@H]12 | EC50 | 92HT599 | MT-2 |  | p24 / ELISA | ≤0.01 µM
C=C1CN(S(=O)(=O)c2ccc(C)cc2)CCCN(CCC)CCCN(S(=O)(=O)c2ccc(C)cc2)C1 | EC50 | NL4-3 | MT-4 |  | p24 | 2.39 µM
Cc1cc(OCCNc2ccc(-c3cnc(C)c([C@H](OC(C)(C)C)C(=O)O)c3N3CCC(C)(C)CC3)cn2)ccc1F | EC50 | NL4-3 | MT-2 |  | luminescence | 0.0032 µM
FC(c1ccc(C(F)(F)F)cc1)C(F)(F)c1nc(-c2ccccc2)no1 | EC50 | LAI | CEM + CEM-SS |  | RT activity | >100 µM
CCOC(=O)c1cc2cc(Cl)ccc2n1CC(O)CNc1ccccc1C(=O)OC | EC50 | IIIB | MT-4 |  | cytopathic effect / MTT | >39 µM
CCC(=O)c1cn(S(=O)(=O)c2ccc(C)cc2)c2cc(C)ccc12 | EC50 | IIIB | C8166 |  | syncytia / visual reading | 11.8 µg/mL
CCSCCCCCCCCCCC(=O)OC[C@H]1O[C@@H](n2cc(C)c(=O)[nH]c2=S)C[C@@H]1F | EC50 |  | MT-2 |  | syncytia | ~0.05 µM
C[C@@]1(F)[C@H](O)[C@@H](CO)O[C@@H]1n1cc(Cl)c2c(N)ncnc21 | EC90 |  | PBMC |  |  | >100 µM
C=C(C)[C@@H]1CC[C@]2(NC(=O)N3CCC(OCCOCCOC)CC3)CC[C@]3(C)[C@H](CC[C@@H]4[C@@]5(C)CC=C(c6ccc(C(=O)O)cc6)C(C)(C)[C@@H]5CC[C@]43C)[C@@H]12 | EC50 | 92HT599 | MT-2 |  | p24 / ELISA | ≤0.01 µM
CCOC(=O)c1cn(CC(O)CSc2ccccc2)cc1-c1ccccc1 | EC50 | IIIB | MT-4 |  | cytopathic effect / MTT | >75.3 µM
COc1cccc2c1nc(-c1ccccc1F)n2Cc1c(F)ccc(F)c1F | EC50 | IIIB | MT-4 |  |  | 0.0014 µg/mL

ECn is the concentration giving n% inhibition of infection, replication or growth. a–b is a range or a potency band. Blank or dashed fields: not listed here.